This note sets out measurements from patent US6906198B1, “Antipicornaviral compounds, their preparation and use” (Agouron Pharmaceuticals, Inc., priority 1998, dated 2005).

Structures are written as SMILES.

Common to all, as to type: cell-based, human rhinovirus
Data set [1] deals with HRV serotype 1A. The data set can be described thus: Antirhinoviral H1-HeLa cell culture assay (XTT), HRV-1A. The settings on record: therapeutic index CC50/EC50, HRV (1A). The method, then: (§1) Antirhinoviral H1-HeLa Cell Culture Assay
(§2) In this cell protection assay, the ability of compounds to protect cells against HRV infection was measured by the XTT dye reduction method, which is described in Weislow et al., J. Natl. Cancer Inst. 1989, vol. 81, 577-586.
(§3) H1-HeLa cells were infected with HRV-14 at a multiplicity of infection (m.o.i.) of 0.13 (virus particles/cell) or mock-infected with medium only. Infected or mock-infected cells were resuspended at 8×10^5 cells per mL, and incubated with appropriate concentrations of the compounds to be tested. Two days later, XTT/PMS was added to test plates and the amount of formazan produced was quantified spectrophotometrically at 450/650 nm. The EC50 value was calculated as the concentration of compound that increased the percentage of formazan production in compound-treated, virus-infected cells to 50% of that produced by compound-free, mock-infected cells. The 50% cytotoxic dose (CC50) was calculated as the concentration of compound that decreased the percentage of formazan produced in compound-treated, mock-infected cells to 50% of that produced by compound-free, mock-infected cells. The therapeutic index (TI) was calculated by dividing the CC50 value by the EC50 value.
(§4) All strains of human rhinovirus (HRV) for use in this assay were purchased from American Type Culture Collection (ATCC), except for HRV serotype-14 (produced from the infectious cDNA clone constructed by Dr. Robert Rueckert, Institute for Molecular Virology, University of Wisconsin, Madison, Wis.). HRV stocks were propagated and viral assays were performed in H1-HeLa cells (ATCC). Cells were grown in minimal essential medium with 10% fetal bovine serum, available from Life Technologies (Gaithersburg, Md.).
(§5) The compounds were tested against control compounds WIN 51711, WIN 52084, and WIN 54954 (obtained from Sterling-Winthrop Pharmaceuticals), Pirodavir (obtained from Janssen Pharmaceuticals), and Pleconaril (prepared according to the method described in Diana et al., J. Med. Chem 1995, vol. 38, 1355). Antiviral data obtained for the test compounds are shown in Tables 1 and 3, where all data are for HRV serotype-14 unless otherwise noted in parentheses.

The test system of data set [2] is HRV serotype 39. The data set is described as follows: Antirhinoviral H1-HeLa cell culture assay (XTT), HRV-39. The settings on record: therapeutic index CC50/EC50, HRV (39). The method, then: as §1, §2, §3, §4, §5
Background: Formazan colour is commonly taken as a measure of viable cells.

For data set [3], the system named is HRV-14. The data set can be described thus: Antirhinoviral H1-HeLa cell culture assay (XTT), HRV-14. The settings on record: therapeutic index CC50/EC50, HRV serotype-14. How it is done:
as §1, §2, §3, §4, §5

Data set [4] relates to HRV serotype 2. The data set can be described thus: Antirhinoviral H1-HeLa cell culture assay (XTT), HRV-2. The following applies: therapeutic index CC50/EC50, HRV (2). The method, then:
as §1, §2, §3, §4, §5

Data set [5] has as its system HRV serotype 10. The data set can be described thus: Antirhinoviral H1-HeLa cell culture assay (XTT), HRV-10. The following applies: therapeutic index CC50/EC50, HRV (10). How it is done:
as §1, §2, §3, §4, §5

Data set [6] relates to HRV serotype 16. The data set is described as follows: Antirhinoviral H1-HeLa cell culture assay (XTT), HRV-16. The following applies: therapeutic index CC50/EC50, HRV (16). How it is done: as §1, §2, §3, §4, §5
The subject of data set [7] is HRV serotype 89. The data set is described as follows: Antirhinoviral H1-HeLa cell culture assay (XTT), HRV-89. The settings on record: therapeutic index CC50/EC50, HRV (89). How it is done:
as §1, §2, §3, §4, §5

On to `CCOC(=O)/C=C/[C@H](CCC(N)=O)NC(=O)[C@H](Cc1ccccc1)NC(=O)[C@H](CC(C)C)NC(=O)c1cc(C)on1` [(A-1), Ethyl-3-((5′-Methylisoxazole-3′-carbonyl)-L-Leu-L-Phe-L-Gln)-E-Propenoate], for which the TI in data set [1] is recorded as greater than 100; in data set [2] it was greater than 450; in data set [3] it was greater than 400; in data set [4], greater than 243.
As for `CCOC(=O)/C=C/[C@H](CCC(N)=O)NC(=O)[C@H](Cc1ccccc1)NC(=O)[C@H](CC(C)C)NC(=O)c1ccno1` [(A-2), Ethyl-3-((Isoxazole-5′-carbonyl)-L-Leu-L-Phe-L-Gin)-E-Propenoate], the TI in data set [3] was greater than 63.
The same measure, in the same setting: the figure for `CCOC(=O)/C=C/[C@H](CCC(N)=O)NC(=O)[C@H](Cc1ccc(C)cc1)NC(=O)[C@@H](NC(=O)c1cc(C)on1)C(C)(C)C` [(A-3), Ethyl-3-((5′-Methylisoxazole-3′-carbonyl)-L-α-(t-Butyl-Gly)-L-(4-Me-Phe)-L-Gln)-E-Propenoate] is greater than 200; for `CCOC(=O)/C=C/[C@H](CCC(N)=O)NC(=O)[C@H](Cc1ccc(F)cc1)NC(=O)[C@@H](NC(=O)c1cc(C)on1)C(C)(C)C` [(A-4), Ethyl-3-((5′-Methylisoxazole-3′-carbonyl)-L-α-(t-Butyl-Gly)-L-(4-F-Phe)-L-Gln)-E-Propenoate] it is greater than 1000.
On the same count and under the same terms, the result for `CCOC(=O)/C=C/[C@H](CCC(N)=O)NC(=O)[C@H](Cc1ccc(F)cc1)N(C)C(=O)[C@H](Cc1c[nH]cn1)NC(=O)c1cc(C)on1` [(A-9), Ethyl-3-{(5′-Methylisoxazole-3′-carbonyl)-L-His-NCH3-L-(4-F-Phe)-L-Gln}-E-Propenoate] reads greater than 55; that for `CCOC(=O)/C=C/[C@H](CCC(N)=O)NC(=O)[C@H](Cc1ccc(F)cc1)N(C)C(=O)[C@H](Cc1ccc2ccccc2c1)NC(=O)c1cc(C)on1` [(A-11), Ethyl-3-{(5′-Methylisoxazole-3′-carbonyl)-L-(2-Naphth)-NCH3-L-(4-F-Phe)-L-Gln}-E-Propenoate], 1667; that for `CCOC(=O)/C=C/[C@H](CCC(N)=O)NC(=O)[C@H](Cc1ccc(F)cc1)N(C)C(=O)[C@H](CC(C)C)NC(=O)c1cc(C)on1` [(A-12), Ethyl-3-{(5′-Methylisoxazole-3′-carbonyl)-L-Leu-NCH3-L-(4-F-Phe)-L-Gln}-E-Propenoate], greater than 250.
`CCOC(=O)/C=C/[C@H](CCC(N)=O)NC(=O)[C@H](Cc1ccc(F)cc1)N(C)C(=O)[C@H](Cc1cccc2ccccc12)NC(=O)c1cc(C)on1` [(A-13), Ethyl-3-{(5′-Methylisoxazole-3′-carbonyl)-L-(1-Naphth)-NCH3-L-(4-F-Phe)-L-Gln}-E-Propenoate] showed a TI in data set [3] greater than 50.
As to `CCOC(=O)/C=C/[C@H](CCC(N)=O)NC(=O)[C@H](Cc1ccccc1)NC(=O)[C@@H](NC(=O)c1cccs1)C(C)(C)C` [(A-14)], in data set [3], the TI is recorded as greater than 208.
In the case of `CCOC(=O)/C=C/[C@H](CCC(N)=O)NC(=O)[C@H](Cc1ccc(C)cc1)NC(=O)[C@@H](NC(=O)C1SCCS1)C(C)(C)C` [(A-15)], the TI was greater than 14 in data set [1], greater than 454 in data set [3] and greater than 37 in data set [5].
`CCOC(=O)/C=C/[C@H](CCC(N)=O)NC(=O)[C@H](Cc1ccc(C)cc1)NC(=O)[C@@H](NC(=O)c1ccc[nH]1)C(C)(C)C` [(A-16)]: the TI is recorded as greater than 21 in data set [1], greater than 222 in data set [3] and greater than 22 in data set [5].
For the compound `CC(C)[C@H](NC(=O)C1SCCS1)C(=O)N[C@@H](Cc1ccc(F)cc1)C(=O)N[C@H](/C=C/C(=O)OCc1cccnc1)CCC(N)=O` [(A-18)], in data set [3], the TI was greater than 67.
In data set [3], `CCOC(=O)/C=C/[C@H](CCC(N)=O)NC(=O)[C@H](Cc1ccccc1)NC(=O)[C@H](CC(C)C)NC(=O)[C@@H]1C=CCN1` [(A-19)] registered a TI greater than 4.
On to `CCOC(=O)/C=C/[C@H](CCC(N)=O)NC(=O)[C@H](Cc1ccccc1)NC(=O)[C@H](CC(C)C)NC(=O)c1cc(C)oc1C` [(A-20)], for which the TI in data set [3] is greater than 8.
The same measure, in the same setting: the figure for `CCOC(=O)/C=C/[C@H](CCC(N)=O)NC(=O)[C@H](Cc1ccccc1)NC(=O)[C@H](CC(C)C)NC(=O)c1nc(C)c[nH]1` [(A-21)] is greater than 40; for `CCOC(=O)/C=C/[C@H](C[C@@H]1CCNC1=O)NC(=O)[C@H](Cc1ccccc1)NC(=O)[C@H](CC(C)C)NC(=O)OCc1ccccc1` [(A-24), Ethyl-3-{Cbz-L-Leu-L-Phe-L-((S)-Pyrrol-Ala)}-E-Propenoate] it is greater than 1000.
For the compound `CCOC(=O)/C=C/[C@H](C[C@@H]1CCNC1=O)NC(=O)[C@H](Cc1ccccc1)NC(=O)[C@@H](NC(=O)OCc1ccccc1)C(C)C` [(A-25), Ethyl-3-{Cbz-L-Val-L-Phe-L-((S)-Pyrrol-Ala)}-E-Propenoate], in data set [3], the TI is greater than 3333.
In data set [3], `CCOC(=O)/C=C/[C@H](C[C@@H]1CCCNC1=O)NC(=O)[C@H](Cc1ccccc1)NC(=O)[C@H](CC(C)C)NC(=O)OCc1ccccc1` [(A-26), Ethyl-3-{Cbz-L-Leu-L-Phe-L-((S)-Piper-Ala)}-E-Propenoate] came in with a TI greater than 3333.
In data set [3], `CCOC(=O)/C=C/[C@H](C[C@H]1CCNC1=O)NC(=O)[C@H](Cc1ccccc1)NC(=O)[C@H](CC(C)C)NC(=O)OCc1ccccc1` [(A-27), Ethyl-3-{Cbz-L-Leu-L-Phe-L-((R)-Pyrrol-Ala)}-E-Propenoate] had a TI greater than 62.
Turning to `Cc1cc(C(=O)N[C@H](C(=O)C[C@@H](Cc2ccc(F)cc2)C(=O)N[C@H](/C=C2\CCOC2=O)C[C@@H]2CCNC2=O)C(C)C)no1` [(B-3), 2-{(5′-Methylisoxazole-3′-carbonyl)-L-ValΨ(COCH2)-L-(4-F-Phe)-L-((S)-Pyrrol-Ala)}-E-(α-Vinyl-γ-Butyrolactone)], in data set [3], the TI is reported as greater than 543.
In data set [3], `CCOC(=O)/C=C/[C@H](C[C@@H]1CCCNC1=O)NC(=O)[C@@H](CC(=O)[C@@H](NC(=O)c1cc(C)on1)C(C)C)Cc1ccc(F)cc1` [(B-4), Ethyl-3-{(5′-Methylisoxazole-3′-carbonyl)-L-ValΨ(COCH2)-L-(4-F-Phe)-L-((S)-Piper-Ala)}-E-Propenoate] displayed a TI greater than 3333.
`CCOC(=O)/C=C/[C@H](CCC(N)=O)NC(=O)[C@H](Cc1ccc(F)cc1)OC(=O)[C@@H](NC(=O)c1cc(C)on1)C(C)C` [(C-1), Ethyl-3-{(5′-Methylisoxazole-3′-carbonyl)-L-Val-O-L-(4-F-Phe)-L-Gln}-E-Propenoate] gave a TI in data set [3] greater than 100.
For `CCOC(=O)/C=C/[C@H](CCC(N)=O)NC(=O)[C@H](Cc1ccccc1)NC(=O)[C@H](CC(C)C)NC(=O)OCc1ccccc1` [Comparison Compound #2, Ethyl-3-(Cbz-L-Leu-L-Phe-L-Gln)-E-Propenoate], the TI in data set [6] is on record as greater than 139; in data set [7], greater than 50; in data set [3] it was greater than 524; in data set [5] it was greater than 533.
Regarding `Cc1cc(CCCCCCCOc2ccc(C3=NCCO3)cc2)on1` [WIN 51711, reference compound], in data set [3], the TI was greater than 77.
Compound `Cc1cc(CCCCCCCOc2ccc(C3=N[C@@H](C)CO3)cc2)on1` [WIN 52084, reference compound] registered a TI in data set [3] greater than 143.
On the same count and under the same terms, the result for `Cc1cc(CCCCCOc2c(Cl)cc(C3=NCCO3)cc2Cl)on1` [WIN 54954, reference compound] reads greater than 30.
